Assay results published in PubChem BioAssay AID588689 (Southern Research Specialized Biocontainment Screening …, 2011).
Some of the results follow. Measured potencies and affinities stand elsewhere. The source made the active and inactive calls. Rule as the data show it: inconclusive = inhibition above about 29% without an active follow-up result; inactive = below that.

Protein sequences, listed by entry. Tags and fused reporters are not part of them.
UniProt P29991, whole entry, looked up: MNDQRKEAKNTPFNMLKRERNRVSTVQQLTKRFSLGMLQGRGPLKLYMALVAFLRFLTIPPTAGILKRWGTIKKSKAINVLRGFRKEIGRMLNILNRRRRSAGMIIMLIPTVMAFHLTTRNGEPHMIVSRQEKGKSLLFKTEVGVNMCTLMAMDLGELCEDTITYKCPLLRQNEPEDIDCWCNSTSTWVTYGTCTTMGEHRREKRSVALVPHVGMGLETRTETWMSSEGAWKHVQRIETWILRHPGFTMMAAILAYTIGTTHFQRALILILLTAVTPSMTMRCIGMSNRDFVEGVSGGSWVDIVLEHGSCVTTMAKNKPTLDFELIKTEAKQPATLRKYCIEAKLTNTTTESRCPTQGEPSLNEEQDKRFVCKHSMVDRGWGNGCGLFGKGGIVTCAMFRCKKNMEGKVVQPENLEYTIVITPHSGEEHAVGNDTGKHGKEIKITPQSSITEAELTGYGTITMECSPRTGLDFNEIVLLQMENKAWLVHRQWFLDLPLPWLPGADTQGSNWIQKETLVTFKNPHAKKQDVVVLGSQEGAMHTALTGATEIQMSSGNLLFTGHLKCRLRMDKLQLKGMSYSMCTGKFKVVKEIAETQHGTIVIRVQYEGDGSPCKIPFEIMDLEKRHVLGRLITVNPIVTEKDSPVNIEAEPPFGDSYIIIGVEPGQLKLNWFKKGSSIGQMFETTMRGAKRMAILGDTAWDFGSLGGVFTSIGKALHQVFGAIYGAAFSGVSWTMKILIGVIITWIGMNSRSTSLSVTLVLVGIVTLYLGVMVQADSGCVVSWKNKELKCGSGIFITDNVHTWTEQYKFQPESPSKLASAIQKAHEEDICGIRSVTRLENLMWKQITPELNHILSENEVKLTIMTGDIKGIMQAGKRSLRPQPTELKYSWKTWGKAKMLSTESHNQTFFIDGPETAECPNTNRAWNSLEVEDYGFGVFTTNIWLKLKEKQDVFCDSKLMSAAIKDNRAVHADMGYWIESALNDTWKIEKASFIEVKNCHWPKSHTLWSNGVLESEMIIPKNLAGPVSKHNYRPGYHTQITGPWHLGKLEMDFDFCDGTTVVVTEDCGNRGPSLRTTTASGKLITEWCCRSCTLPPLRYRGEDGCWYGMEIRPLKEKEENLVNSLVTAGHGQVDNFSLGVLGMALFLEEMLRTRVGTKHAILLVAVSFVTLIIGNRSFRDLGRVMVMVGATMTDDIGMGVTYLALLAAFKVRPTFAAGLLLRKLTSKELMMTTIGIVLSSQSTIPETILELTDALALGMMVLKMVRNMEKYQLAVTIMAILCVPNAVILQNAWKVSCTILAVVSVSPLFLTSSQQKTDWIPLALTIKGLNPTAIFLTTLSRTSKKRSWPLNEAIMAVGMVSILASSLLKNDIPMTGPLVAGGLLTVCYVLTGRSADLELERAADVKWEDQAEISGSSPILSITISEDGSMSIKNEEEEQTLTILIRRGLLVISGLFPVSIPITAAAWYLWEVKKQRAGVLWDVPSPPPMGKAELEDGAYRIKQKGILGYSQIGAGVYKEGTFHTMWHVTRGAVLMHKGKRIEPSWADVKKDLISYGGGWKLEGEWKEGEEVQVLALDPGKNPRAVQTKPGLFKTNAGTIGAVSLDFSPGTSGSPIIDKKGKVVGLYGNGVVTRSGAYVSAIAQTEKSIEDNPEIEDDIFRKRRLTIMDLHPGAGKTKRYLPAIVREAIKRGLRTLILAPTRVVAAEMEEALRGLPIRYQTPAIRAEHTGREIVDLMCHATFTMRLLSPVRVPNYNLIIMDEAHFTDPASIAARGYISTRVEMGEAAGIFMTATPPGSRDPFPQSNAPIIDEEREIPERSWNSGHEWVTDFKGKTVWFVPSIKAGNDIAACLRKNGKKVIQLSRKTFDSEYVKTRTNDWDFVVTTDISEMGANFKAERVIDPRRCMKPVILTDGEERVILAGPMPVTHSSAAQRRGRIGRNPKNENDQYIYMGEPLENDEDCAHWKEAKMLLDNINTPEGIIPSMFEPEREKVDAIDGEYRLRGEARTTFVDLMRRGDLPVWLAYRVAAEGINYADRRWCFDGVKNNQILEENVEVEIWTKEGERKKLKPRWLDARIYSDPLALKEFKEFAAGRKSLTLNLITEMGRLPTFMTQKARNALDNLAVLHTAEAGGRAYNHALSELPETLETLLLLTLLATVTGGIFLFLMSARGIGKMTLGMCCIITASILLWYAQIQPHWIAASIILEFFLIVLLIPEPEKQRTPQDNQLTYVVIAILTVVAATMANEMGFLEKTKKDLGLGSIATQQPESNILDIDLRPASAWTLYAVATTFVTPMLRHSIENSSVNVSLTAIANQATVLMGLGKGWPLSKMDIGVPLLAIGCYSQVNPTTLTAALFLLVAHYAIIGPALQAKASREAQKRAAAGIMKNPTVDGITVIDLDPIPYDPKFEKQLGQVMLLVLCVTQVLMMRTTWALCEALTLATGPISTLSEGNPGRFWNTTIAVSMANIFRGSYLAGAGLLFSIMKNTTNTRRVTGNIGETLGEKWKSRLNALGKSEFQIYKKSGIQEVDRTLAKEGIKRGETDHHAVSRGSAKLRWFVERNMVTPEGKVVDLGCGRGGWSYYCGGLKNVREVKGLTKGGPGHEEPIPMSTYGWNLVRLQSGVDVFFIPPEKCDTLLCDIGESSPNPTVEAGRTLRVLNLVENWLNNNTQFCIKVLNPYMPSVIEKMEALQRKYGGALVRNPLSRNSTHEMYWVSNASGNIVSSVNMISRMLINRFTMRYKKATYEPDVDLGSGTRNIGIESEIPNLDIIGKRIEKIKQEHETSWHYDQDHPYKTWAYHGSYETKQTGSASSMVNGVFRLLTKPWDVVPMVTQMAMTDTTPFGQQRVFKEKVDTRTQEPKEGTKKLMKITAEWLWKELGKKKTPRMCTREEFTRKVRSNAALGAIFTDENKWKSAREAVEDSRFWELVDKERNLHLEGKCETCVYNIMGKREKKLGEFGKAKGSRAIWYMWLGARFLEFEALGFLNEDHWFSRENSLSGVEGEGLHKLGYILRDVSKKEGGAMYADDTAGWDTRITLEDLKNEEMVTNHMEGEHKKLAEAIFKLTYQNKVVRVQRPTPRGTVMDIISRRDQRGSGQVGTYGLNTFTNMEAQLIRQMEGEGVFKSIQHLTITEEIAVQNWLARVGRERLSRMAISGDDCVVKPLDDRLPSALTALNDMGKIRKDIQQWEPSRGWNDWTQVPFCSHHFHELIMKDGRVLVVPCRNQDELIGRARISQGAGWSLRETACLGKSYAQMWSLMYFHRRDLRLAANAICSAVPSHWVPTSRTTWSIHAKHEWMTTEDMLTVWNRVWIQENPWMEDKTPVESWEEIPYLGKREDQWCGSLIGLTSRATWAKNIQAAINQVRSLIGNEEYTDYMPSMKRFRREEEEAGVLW

target: Genome polyprotein (Dengue virus type 2 (strain 16681-PDK53)) (UniProt P29991); experiment: flavivirus cap methylation enzyme inhibition – biochemical, confirmation dose response, primary screen (AID 588689); details: Dengue-2 NS5 methyltransferase capping enzyme assay, at 25 µM, hits give high values

| SMILES | inhibition |
| --- | --- |
| Nc1ccc([As](=O)(O)c2ccc(N)cc2)cc1 | inactive: -15.7% |
| C[N+]1=C2C=CC=CC=C2SC12C([N+](=O)[O-])=CC([N+](=O)[O-])=C[C-]2[N+](=O)[O-] (configuration not stated) | inactive: 47.3% |
| CN1CCCC(OC(=O)C(c2ccccc2)c2ccccc2)C1 (configuration not stated) | inactive: -4% |
| Clc1ccc(Cl)c(NC2=NCC(CBr)S2)c1 (configuration not stated) | inactive: -1.64% |
| COc1ccccc1OP(=O)(Nc1ccc(C)cn1)Oc1ccccc1OC | inactive: 2.21% |
| CN(C(=O)Cc1ccc(Cl)c(Cl)c1)[C@H]1CCCC[C@H]1N1CCCC1 | inactive: -1.49% |
| Cc1ccc(N/C(=N/P(=O)(N2CCOCC2)N2CCOCC2)N2CCOCC2)cc1 | inactive: 7.02% |
| NC(=O)c1cc([N+](=O)[O-])cc([N+](=O)[O-])c1N | inactive: -10.1% |
| Oc1ccccc1CNc1ccccn1 | inactive: -0.69% |
| O=C(NC(Sc1ccncn1)C(Cl)(Cl)Cl)c1ccccc1 (configuration not stated) | inactive: -3.9% |
| Nc1cc(N)c2nonc2c1[N+](=O)[O-] | inactive: -4.59% |
| CC(C)CC(=O)NC(Sc1ccc(Cl)cc1)C(Cl)(Cl)Cl (configuration not stated) | inactive: 0% |
| Cc1cc(SC(NC(=O)c2ccc(F)cc2)C(Cl)(Cl)Cl)ncn1 (configuration not stated) | inactive: -11.8% |
| CCOP(=O)(Nc1ccccc1)OCC | inactive: 8.57% |
| CN(C(=O)Cc1ccc(Cl)c(Cl)c1)[C@H]1CCCC[C@@H]1N1CCCC1 | inactive: 1.47% |
| Cc1ccc(NP(=O)(Oc2ccccc2F)Oc2ccccc2F)nc1 | inactive: 2.32% |
| O=P(Nc1nc2ccc(Cl)cc2s1)(c1ccccc1)c1ccccc1 | inactive: 6.96% |
| CN(C)P(=O)(N(C)C)n1c(Nc2ccccc2)nnc1-c1ccccc1 | inactive: 3.45% |
| CC(=O)Nc1ccc([As](=O)(O)O)cc1 | inactive: 6.52% |
| O=C(O)c1ccccc1[As](=O)(O)O | inactive: 3.91% |
| CCCC1OP(N)(=O)OCC1CC (configuration not stated) | inactive: -8.53% |

| SMILES | inhibition |
| --- | --- |
| Nc1cccc2ccc([As](=O)(O)O)cc12 | inactive: 84.5% |
| CCN(N=Nc1nonc1N)c1nonc1N | inactive: 0% |
| O=P1(N(CCCl)CCCl)OCCC2CCCCN21 (configuration not stated) | inactive: 2.33% |
| O=C(NC1CCS(=O)(=O)C1)NP(=S)(Oc1ccccc1)Oc1ccccc1 (configuration not stated) | inactive: 0.74% |
| CCNC(=S)/N=C(\N)N[N+](=O)[O-] | inactive: 0% |
| CC(NC(=O)COC(=O)C(O)(c1ccccc1)c1ccccc1)c1ccccc1 (configuration not stated) | inactive: -2.21% |
| Cc1ccccc1OP(=O)(Nc1ccccn1)Oc1ccccc1C | inactive: 2.35% |
| O=c1c2cc([N+](=O)[O-])ccc2[nH]c2c([N+](=O)[O-])cc([N+](=O)[O-])cc12 | inactive: -4.69% |
| CN(C)C(=O)Oc1noc2ccccc12 | inactive: 3.06% |
| O=C(OC1CN2CCC1CC2)c1ccccc1 (configuration not stated) | inactive: -4.52% |
| CCC(=O)N1C2C3N(C(=O)CC)C1C1N(C(=O)CC)C(C(N1C(=O)CC)N3C(=O)CC)N2C(=O)CC | inactive: -7.62% |
| COC(=O)c1cc2c(s1)N=C(c1ccccc1)N(C)P2(=O)N1CCOCC1 (configuration not stated) | inactive: 1.07% |
| Cc1ccc(OP(=O)(Nc2ccccn2)Oc2ccc(C)cc2)cc1 | inactive: 2.87% |
| CC(=O)NC(SC(=S)N(CC(C)C)CC(C)C)C(Cl)(Cl)Cl (configuration not stated) | inactive: -8.67% |
| CC(C)(C)C(=O)NC(Sc1ccccc1)C(Cl)(Cl)Cl (configuration not stated) | inactive: -0.78% |
| CCc1cc(O)c([N+](=O)[O-])c(C)c1[N+](=O)[O-] | inactive: 3.5% |
| O=P1(Nc2nc3ccc(Cl)cc3s2)COc2ccccc2O1 (configuration not stated) | inactive: -2.42% |
| CCOc1ccc(C2=NCC(CBr)S2)cc1 (configuration not stated) | inactive: 4.58% |
| CC(=O)Nc1ccc([As](=O)(O)O)c(O)c1 | inactive: 0% |
| CC(=O)Nc1ccc(Oc2c([N+](=O)[O-])cc([N+](=O)[O-])cc2[N+](=O)[O-])cc1 | inactive: -2.33% |
| Cc1ccccc1CN(C)C(=O)COC(=O)C(O)(c1ccccc1)c1ccccc1 | inactive: -0.74% |

| SMILES | inhibition |
| --- | --- |
| C[C@H]1OP(=O)(Oc2ccccc2)C[C@@H]2O[C@@H]21 (some centres not stated) | inactive: -5.18% |
| C[C@@H]1C=CCP(=O)(Oc2ccccc2)O1 (some centres not stated) | inactive: 3.51% |
| CC(=O)c1ccc(N2CC2c2ccncc2)cc1 (configuration not stated) | inactive: 0% |
| N#C/C(=C\c1ccc(N(CCBr)CCBr)cc1)C(N)=O | inactive: -15.1% |
| COC(=O)C1(C)COP(=O)(NCc2ccccc2)OC1 (configuration not stated) | inactive: 4.03% |
| c1nnnn1CCn1cnnn1 | inactive: 0% |
| O=P(Nc1nccs1)(c1ccccc1)c1ccccc1 | inactive: -1.36% |
| CC(C)C(=O)NC(Sc1ccccc1)C(Cl)(Cl)Cl (configuration not stated) | inactive: 4.16% |
| O=P(Nc1nc2ccccc2s1)(c1ccccc1)c1ccccc1 | inactive: -4.02% |
| C[C@H]1OP(=O)(Oc2ccccc2)[C@H](O)[C@H](O)[C@H]1N=[N+]=[N-] (some centres not stated) | inactive: -8.63% |
| CN(C)C1(CNC(=O)c2ccc(Cl)c(S(N)(=O)=O)c2)CCCCC1 | inactive: 0% |
| O=P(Nc1ccccn1)(c1ccc(Br)cc1)c1ccc(Br)cc1 | inactive: -7.17% |
| COc1ccc(N)c([N+](=O)[O-])c1[N+](=O)[O-] | inactive: 7.96% |
| O=C(OC1CN2CCC1CC2)c1cccc(Cl)c1 (configuration not stated) | inactive: 7.77% |
| C(Cc1nn[nH]n1)Cc1nn[nH]n1 | inactive: -4.41% |
| Nc1ccc([As](=O)(O)c2ccc([N+](=O)[O-])cc2)cc1 | inactive: -5.41% |
| O=[As](O)(c1ccccc1)c1ccc(O)cc1 | inactive: 0% |
| O=[N+]([O-])c1ncn(CCn2cnc([N+](=O)[O-])n2)n1 | inactive: -6.77% |
| CC(=O)NC(SC(=S)N(C)C)C(Cl)(Cl)Cl (configuration not stated) | inactive: 0.72% |
| O=[N+]([O-])c1ccc(O)c(/C=N/Nc2ccc([N+](=O)[O-])cc2[N+](=O)[O-])c1 | inactive: 27.2% |
